In the assay the target is Rift Valley fever virus Gn-Gc heterodimer (on the virion) (Rift Valley fever virus (Clone 13)). Put plainly: cryo-EM structure.

Values joined by “and” are separate entries in the source; they are usually repeats but may differ in a detail not shown here. Identical values can stand only once.

“Rift Valley fever virus Gn-Gc heterodimer (on the virion) (complex)”: the stoichiometry N was 5 and 6.

Broadly, the stoichiometry N is a count of units in the complex or per binding partner.

The values above are taken from article PMC5783950, “Shielding and activation of a viral membrane fusion protein” (2018).
